The record followed here is BindingDB's records for 40279549.

For the assay, the target named is Fucose-binding lectin PA-IIL (Pseudomonas aeruginosa (strain ATCC 15692 / DSM 22644 / CIP 104116 / JCM 14847 / LMG 12228 / 1C / PRS 101 / PAO1), UniProt Q9HYN5).

The term IC50 denotes the concentration that gives 50% inhibition. Low readings indicate greater potency in that assay, high ones weaker potency in that assay. `C[C@@H]1O[C@H](CNC(=O)C2CCCN2)[C@@H](O)[C@H](O)[C@@H]1O` (stereo partly specified) registered an IC50 of 1.11 µM. That is a single-digit micromolar value.
